# Results from PubChem BioAssay AID1621 (Southern Research Specialized Biocontainment Screening …, 2009).
# This is one part of the list. Measured potencies and affinities stand elsewhere. Some salts and complexes are drawn in separate pieces, as the source files them; their charges need not balance. Calls of active or inactive are those of the source. The rule behind the calls is not given here.
# Assay: inhibition of WNV-induced cytopathic effect – cell-based, CPE readout (AID 1621)
# Conditions: West Nile virus-infected cells, at 10 µM, active compounds read high
row,SMILES,CPE inhibition
1,Cc1cc(C)cc(OP(C)(=O)Nc2cccc(C(F)(F)F)c2)c1 (stereo unspecified),inactive: -1.58%
2,COc1ccc(OP(C)(=O)Nc2ccccc2Br)cc1 (stereo unspecified),inactive: 0.14%
3,COc1ccccc1OP(C)(=O)Nc1ccc(C)c(C)c1 (stereo unspecified),inactive: 0.5%
4,Cc1nc2ccc3ccccc3c2o1.O=[N+]([O-])c1cc([N+](=O)[O-])c(O)c([N+](=O)[O-])c1,inactive: -0.22%
5,CP(=O)(OCCOc1ccccc1)OCCOc1ccccc1,inactive: -0.4%
6,CP(=O)(Nc1ccc(Cl)cc1Cl)Oc1ccccc1 (stereo unspecified),inactive: -0.19%
7,COc1ccccc1OP(C)(=O)Nc1ccc(Br)cc1 (stereo unspecified),inactive: 0.86%
8,CN(C)CCOC(=O)C(O)(c1ccccc1)C1CCCC1 (stereo unspecified),inactive: -0.37%
9,COc1ccc(OP(C)(=O)Nc2ccccn2)cc1 (stereo unspecified),inactive: -0.29%
10,O=[N+]([O-])c1cc([N+](=O)[O-])c(Nc2ccccn2)c([N+](=O)[O-])c1,inactive: 0.73%
11,Cc1c(NP(C)(=O)Oc2ccc(C(C)C)cc2)c(=O)n(-c2ccccc2)n1C (stereo unspecified),inactive: -0.65%
12,CCc1ccc(OP(C)(=O)O)cc1,inactive: 0.03%
13,CP(=O)(Nc1ccccn1)Oc1ccccc1 (stereo unspecified),inactive: 0.47%
14,COc1ccccc1OP(C)(=O)Nc1ccc(C)cc1C (stereo unspecified),inactive: -0.17%
15,CCN(CC)CC(O)COC(=O)C(O)(c1ccccc1)C1CCCCC1 (stereo unspecified),inactive: -0.31%
16,COc1ccc(OP(C)(=O)Nc2ccc(Br)cc2)cc1 (stereo unspecified),inactive: -0.35%
17,CP(=O)(Oc1ccccc1)N1CCOC1=O (stereo unspecified),inactive: 0.23%
18,CCc1ccc(OP(C)(=O)Nc2cccnc2)cc1 (stereo unspecified),inactive: -0.13%
19,COc1ccccc1OP(C)(=O)Nc1c(C)n(C)n(-c2ccccc2)c1=O (stereo unspecified),inactive: -0.09%
20,O=C(OCCCN1CCCC1)C(O)(c1ccccc1)C1CCCCC1 (stereo unspecified),inactive: 0.26%
21,CP(=O)(Nc1ccc(Cl)cc1)Oc1ccc(F)cc1 (stereo unspecified),inactive: -0.43%

row,SMILES,CPE inhibition
1,CC(C)(C)c1ccc(OP(C)(=O)O)cc1,inactive: -0.5%
2,COc1ccccc1OP(C)(=O)Nc1ccccc1Br (stereo unspecified),inactive: 0.12%
3,CP(=O)(OC12CC3CC(CC(C3)C1)C2)OC12CC3CC(CC(C3)C1)C2,inactive: -0.2%
4,CCOC(=O)c1ccc(NP(C)(=O)Oc2ccc(Cl)cc2)cc1 (stereo unspecified),inactive: 0.69%
5,COc1ccc(OP(C)(=O)Nc2cccc(Br)c2)cc1 (stereo unspecified),inactive: -0.25%
6,COc1ccc(NP(C)(=O)Oc2ccccc2OC)cc1 (stereo unspecified),inactive: 1.08%
7,CN(C)CCOC(=O)C(O)(c1ccccc1)C1CCCCC1 (stereo unspecified),inactive: 0.03%
8,Cc1cc(-c2cccc3ccccc23)c(C)cn1.O=[N+]([O-])c1cc([N+](=O)[O-])c(O)c([N+](=O)[O-])c1,inactive: -0.03%
9,O=[N+]([O-])c1ccc(OP2(=O)COCCO2)cc1 (stereo unspecified),inactive: 0.39%
10,CP(=O)(Nc1ccc(SC(F)(F)F)cc1)Oc1ccc(F)cc1 (stereo unspecified),inactive: -0.39%
11,CCOP(C)(=S)SCC(=O)NC(C)(CC)C(=O)O (stereo unspecified),inactive: 0.13%
12,CP(=O)(Nc1ccc2c(c1)OCCO2)Oc1ccccc1 (stereo unspecified),inactive: -0.06%
13,Cc1ccccc1NP(C)(=O)Nc1ccccc1C,inactive: 0.1%
14,CC(C)c1ccc(OP(C)(=O)Nc2ccc(SC(F)(F)F)cc2)cc1 (stereo unspecified),inactive: -1.92%
15,CP(=O)(Nc1ccccc1F)Oc1ccccc1 (stereo unspecified),inactive: 0.77%
16,O=C(OCCN1CCN(CCOCc2ccccc2)CC1)C(O)(c1ccccc1)c1ccccc1,inactive: 0.25%
17,O=C(OC1CN2CCC1CC2)c1ccc([N+](=O)[O-])cc1 (stereo unspecified),inactive: 0.42%
18,COc1ccc2c(c1O)-c1c(O)c(OC)cc3c1[C@H](C2)[N+](C)(C)CC3.O=[N+]([O-])c1cc([N+](=O)[O-])c([O-])c([N+](=O)[O-])c1[O-],inactive: 0.07%
19,COc1ccc(OP(C)(=O)Nc2ccc(SC(F)(F)F)cc2)cc1 (stereo unspecified),inactive: -1.29%
20,CCOC(=O)c1ccc(NP(C)(=O)Oc2ccc(F)cc2)cc1 (stereo unspecified),inactive: -0.24%
21,CCN(CC)CCCOC(=O)C(O)(c1ccccc1)C1CCCCC1 (stereo unspecified),inactive: 0.46%

row,SMILES,CPE inhibition
1,CCCCCOc1ccc(NP(C)(=O)Oc2ccc(Cl)cc2Cl)cc1 (stereo unspecified),inactive: -0.03%
2,O=[N+]([O-])c1cc([N+](=O)[O-])c(OC2CCCCC2O)c([N+](=O)[O-])c1 (stereo unspecified),inactive: -0.33%
3,CP(=O)(Nc1ccccc1)Oc1ccc(F)cc1 (stereo unspecified),inactive: -0.1%
4,O=C(O)c1cccc(Nc2c([N+](=O)[O-])cc([N+](=O)[O-])cc2[N+](=O)[O-])c1,inactive: 0.39%
5,CC1=NCCc2c1[nH]c1ccccc21.O=[N+]([O-])c1cc([N+](=O)[O-])c(O)c([N+](=O)[O-])c1,inactive: -0.52%
6,COc1ccccc1OP(C)(=O)Nc1cccc(Br)c1 (stereo unspecified),inactive: 0.56%
7,Cc1cc(C)cc(OP(C)(=O)Nc2ccc(C)cc2C)c1 (stereo unspecified),inactive: -0.47%
8,CCOC(=O)c1ccc(NP(C)(=O)Oc2cc(C)cc(C)c2)cc1 (stereo unspecified),inactive: -0.3%
9,CP(=O)(Nc1cccc(Br)c1)Oc1ccccc1 (stereo unspecified),inactive: -0.51%
10,Cc1cc(C)cc(OP(C)(=O)Nc2ccccn2)c1 (stereo unspecified),inactive: -0.17%
11,Cc1ccc(C)c(NP(C)(=O)Oc2ccccc2)c1 (stereo unspecified),inactive: 0.55%
12,O=[N+]([O-])c1cc([N+](=O)[O-])c(-n2nnc3ccccc32)c([N+](=O)[O-])c1,inactive: 0.56%
13,Cc1nc2ccc3ccccc3c2s1.O=[N+]([O-])c1cc([N+](=O)[O-])c(O)c([N+](=O)[O-])c1,inactive: 0.38%
14,O=[N+]([O-])c1cc([N+](=O)[O-])c(Nc2nnnn2CCO)c([N+](=O)[O-])c1,inactive: 0.07%
15,CCOC(=O)C(CC)C1=NC(C)(C)Cc2ccccc21.O=[N+]([O-])c1cc([N+](=O)[O-])c(O)c([N+](=O)[O-])c1 (stereo unspecified),inactive: -0.04%
16,CN1CCCCC1COC(=O)C1(O)c2ccccc2CCc2ccccc21 (stereo unspecified),inactive: -0.45%
17,COc1ccccc1OP(C)(=O)Nc1c(C)cccc1C (stereo unspecified),inactive: 0.26%
18,CP(=O)(Nc1ccc(SC(F)(F)F)cc1)Oc1ccccc1 (stereo unspecified),inactive: -1.69%
19,CCCOc1ccc(NP(C)(=O)Oc2ccc(Cl)cc2)cc1 (stereo unspecified),inactive: -0.87%
20,CP(=S)(Nn1cnnc1)Oc1ccccc1 (stereo unspecified),inactive: 0.06%
21,COc1ccccc1OP(C)(=O)Nc1ccccc1 (stereo unspecified),inactive: 0.19%

row,SMILES,CPE inhibition
1,CP(=O)(Nc1ccccc1Br)Oc1ccccc1 (stereo unspecified),inactive: -0.34%
2,CP(=O)(Nc1ccc(SC(F)(F)F)cc1)Oc1ccc(Cl)cc1 (stereo unspecified),inactive: -0.13%
3,Cc1cccc(C)c1OP(C)(=O)Nc1ccc(SC(F)(F)F)cc1 (stereo unspecified),inactive: -0.64%
4,CP(=O)(Oc1ccccc1)OC(c1ccccc1)C(F)(F)F (stereo unspecified),inactive: -0.31%
5,CCc1ccc(OP(C)(=O)N2CCN(c3ccc([N+](=O)[O-])cc3)CC2)cc1 (stereo unspecified),inactive: -0.65%
6,CP(=O)(NC(=O)Nc1ccccc1)Oc1ccccc1 (stereo unspecified),inactive: 0.1%
7,Cc1cc(C)cc(OP(C)(=O)Nc2ccc(SC(F)(F)F)cc2)c1 (stereo unspecified),inactive: -1.72%
8,CCOP(C)(=S)SCC(=O)NC(C)C(=O)O (stereo unspecified),inactive: -0.25%
9,CCOC(=O)c1ccc(NP(C)(=O)Oc2ccc(OC)cc2)cc1 (stereo unspecified),inactive: -0.5%
10,CP(=O)(Nc1ccccn1)Oc1ccc(Cl)cc1 (stereo unspecified),inactive: 0.06%
11,CCN(CC)CCCOC(=O)C(O)(c1ccccc1)c1ccccc1,inactive: 0.51%
12,CC(C)(C)c1ccc(OP(C)(=O)Nc2ccc(SC(F)(F)F)cc2)cc1 (stereo unspecified),inactive: -0.07%
13,Cc1cccc(C)c1OP(C)(N)=O (stereo unspecified),inactive: 1.21%
14,O=[N+]([O-])c1ccc2c(c1)C=Nc1ccccc1O2,inactive: -1.61%
15,CCOC(=O)c1ccc(NP(C)(=O)Oc2ccccc2)cc1 (stereo unspecified),inactive: -0.24%
16,COc1ccccc1OP(C)(=O)Nc1ccc(C)cc1 (stereo unspecified),inactive: 0.24%
17,COc1ccccc1OP(C)(=O)Nc1cc(Cl)ccc1C (stereo unspecified),inactive: -0.95%
18,Cc1cc(C)cc(OP(C)(N)=O)c1 (stereo unspecified),inactive: 0.99%
